We go through three substances from patent US9346854B2, “Anti-inflammatory peptides and use thereof” (Yeda Research and Development Co. Ltd., priority 2012, dated 2016).

This data set can be described thus: Circular dichroism spectroscopy with and without LPS. In kind it is physicochemical, E. coli.

No end group written: not given here.

As for “KALALALKALALKALALALK-NH2 [K(AL)3K(AL)2K(AL)3K]”, the “secondary structure (CD)” value (in the presence of LPS) is given as “α-helical”. Besides, the “CD ratio 222/208” value (with LPS 50 μM, peptide 50 μM) is recorded as 1.00.

Turning to “KKALALALALALAKK-NH2 [K2(AL)5AK2, KKALALALALALAKK]”, the “secondary structure (CD)” value was “random coil” (in solution, without LPS) and “β-sheet” (in the presence of LPS).

KKAVAVAVAVAVAVAVAVKK-NH2 [K2(AV)8K2]: the “secondary structure (CD)” value (in the presence of LPS) is listed as “β-sheet”.
